Test results published in publication PMC3630172.
The exact form of at least one protein or probe is not confirmed. For some of these results: Weaker means in comparison with the reference protein, sequence or condition of that experiment.

Tests used:
[1] = tested on: GST-rPfPuf2 (Plasmodium falciparum); test: competition with a labelled probe; conditions: LightShift RNA EMSA binding buffer (salt, pH not given), 5% glycerol, 2 ug tRNA per 20 ul, RNase inhibitor, 2.5 nM RNA, 0.25-400 nM rPfPuf2, room temperature 20 min, recombinant protein, protein details: GST, label: biotin (unlabeled as competitor)
[2] = tested on: GST-rPfPuf2 (Plasmodium falciparum); test: EMSA; conditions: LightShift RNA EMSA binding buffer (salt, pH not given), 5% glycerol, 2 ug tRNA per 20 ul, RNase inhibitor, 2.5 nM RNA, 0.25-400 nM rPfPuf2, room temperature 20 min; recombinant protein; protein details: GST; label: biotin (unlabeled as competitor)
[3] = letters put together from the description

| Sequence | binding result [1, 3] | binding result [2] | binding result [1] |
| --- | --- | --- | --- |
| GAAAUGUUCUUUUGUAAUUAUAUUUUGUUCGAUGAUUC [pfs28 RNA1] | binds | – | – |
| AUUAUUUUGUUGUCGAAAAUUGUACAUAAGCC [hb NRE] | – | binds | binds more weakly |
| UUCUCAUUUGUUAAUAAAUUGUUGUGAAAACAA [pfs25 RNA1] | binds | – | – |
